Key:
[1] = target: BA.2.86-V2 soluble spike protein (SARS-CoV-2); experiment: SPR
[2] = target: XBB.1.5 soluble spike protein (SARS-CoV-2); experiment: SPR

“dimeric human-ACE2-Fc protein (from UniProt Q9BYF1) (Fc fusion)” showed a Kd [1] of 0.6 nM and a Kd [2] of 1.34 nM.

From doi:10.1101/2023.09.24.559214
